Measured values from several laboratories, pooled; numbers as filed in NIAID ChemDB.

All rows: whole-cell or culture tests; agent: HIV-1; cell line: CEM + CEM-SS; read-out: EC50

An empty or dashed field is not shown.

structure	strain	mutations	method	value
CC(C)=CCOc1cc(NC(=S)c2ccoc2C)ccc1Cl	4XAZT+L100I (RT D67N K70R L100I T215Y K219Q)	RT-D67N K70R L100I T215Y K219Q	p24	0.2 µM
CCC(C)C(NC(=O)c1ccccc1SSc1ccccc1C(=O)NC(C(=O)O)C(C)CC)C(=O)O	IIIB		cytopathic effect / XTT	1.6 µM
CC(C)CCC[C@@H](C)[C@H]1CC[C@H]2[C@@H]3CC[C@H]4CC(=C(c5cc(Cl)c(O)c(C(=O)O)c5)c5cc(Cl)c(O)c(C(=O)O)c5)CC[C@]4(C)[C@H]3CC[C@]12C	RF		cytopathic effect	83.3 µM
CCCCCCCC(=O)O.CCCCCCCCCCCCCCCCNCC(O)C(O)C(OC1OC(CO)C(O)C(O)C1O)C(O)CO	LAI		MTT	16 µM
CCCc1cc(=O)oc2c3c(c4c(c12)OC(C)(C)CC4)O[C@H](C)[C@@H](C)C3=O			cytopathic effect / MTT	2.93 µM
C=C1C(=O)[C@]23C[C@H]1CC[C@H]2[C@]1(C)CCC[C@@](C)(CC(=O)O)[C@H]1C[C@@H]3OC(C)=O				0.9 µg/mL
CCCCCCCCCCCCCCCCNCC(O)C(O)C(OC1OC(CO)C(O)C(O)C1O)C(O)CO	LAI		MTT	50 µM
CC(C)CN(C[C@@H](O)[C@H](Cc1ccccc1)NC(=O)[C@@H](NC(=O)C1CCCN1)C(C)(C)C)S(=O)(=O)c1ccc2c(c1)OCO2				0.012 µM
O=C(OC(c1ccccc1)C(F)(F)c1nc2ccccc2o1)c1ccncc1	LAI		RT activity	>100 µM
Nc1ccn([C@H]2C[C@H](CO)[C@@H](CO)O2)c(=O)n1	RF		cytopathic effect / XTT	0.02 µg/mL
COC(=O)[C@H](C)NC(=O)C[C@H](O)[C@@H](NC(=O)Oc1ccccc1)C(F)(F)F	LAI		RT activity	>100 µg/mL
O=C(Nc1ccc2c(O)c(N=Nc3ccc(C(=O)O)cc3)c(S(=O)(=O)O)cc2c1)Nc1ccc2c(O)c(N=Nc3ccc(C(=O)O)cc3)c(S(=O)(=O)O)cc2c1	RF		cytopathic effect / XTT	8.8 µM
CCCCCCCCCCCCCCCCOCC(COP(=O)([O-])OCC[NH2+]C(C)C)OCC	IIIB		syncytia	>6 µM
O=C1c2ccccc2N(CC2CCCCC2)S(=O)(=O)N1Cc1ccccc1	IIIB		p24	3 µM
CC(C)CCC[C@@H](C)[C@H]1CC[C@H]2[C@@H]3CC[C@H]4C[C@@H](CCC=C(c5cc(Cl)c(O)c(C(=O)O)c5)c5cc(Cl)c(O)c(C(=O)O)c5)CC[C@]4(C)[C@H]3CC[C@]12C	RF		cytopathic effect	3 µM
COc1ccccc1C(=O)N(Cc1ccccc1)c1ccc(Cl)c(C(=O)OC(C)C)c1	RF		cytopathic effect / XTT	>100 µM
CSCC[C@H](NC(=O)[C@H](CO)N(Cc1ccccc1)C(=O)[C@H](CC(C)C)NC(=O)OCc1ccccc1)C(=O)NC(C)(C)C	IIIB		p24	0.543 µM
CC(C)CCC[C@@H](C)[C@H]1CC[C@H]2[C@@H]3C[C@@H](CCC=C(c4cc(Cl)c(O)c(C(=O)O)c4)c4cc(Cl)c(O)c(C(=O)O)c4)[C@H]4CCCC[C@]4(C)[C@H]3CC[C@]12C	RF		cytopathic effect	19 µM
CC(C)CC(=O)N[C@H](C(=O)N[C@H](C(=O)N[C@H]([C@@H](O)CC(=O)N[C@@H](C)C(=O)N[C@H]([C@@H](O)CC(=O)O)C(F)(F)F)C(F)(F)F)C(C)C)C(C)C	LAI		RT activity	>10 µg/mL
Fc1ccc(CC(F)(F)c2nc3ccccc3o2)cc1	LAI		RT activity	>100 µM
Cc1occc1C(=S)Nc1ccc(Cl)c(/C=N/OC(C)(C)C)c1	NL4-3	RT-K103N	cytopathic effect / XTT	4.8 µM
CCCCCCCCCCCCCC(=O)N[C@@H](CS)C(=O)N[C@@H](C)C(=O)N[C@H](C(=O)N[C@@H](C)C(=O)N[C@@H](Cc1ccc(O)cc1)C(=O)N[C@@H](Cc1c[n+](C)cn1C)C(=O)OC)C(C)C			cytopathic effect / XTT	<12.5 µg/mL
Fc1ccc(C(F)(F)C(F)(F)c2nc3ccccc3o2)cc1	LAI		RT activity	88 µM
Cc1c(O)cccc1C(=O)N[C@@H](Cc1ccccc1)C(O)CN1C[C@H]2CCS[C@H]2C[C@H]1C(=O)NC(C)(C)C	HXB2		cytopathic effect / XTT	0.024 µM
CCn1c(C)c(C(=O)OC)c(C(=O)OC)c1Cc1ccccc1	IIIB		cytopathic effect / MTT	1.8 µM
O=C1c2ccccc2N(Cc2ccccc2-c2ccccc2)S(=O)(=O)N1Cc1ccccc1	IIIB		p24	2 µM
COc1ccc2c(c1O)-c1c(O)c(OC)cc3c1[C@H](C2)[N+](C)(C)CC3	RF		cytopathic effect / XTT	25–50 µg/mL
O=C(Nc1ccccc1)c1cc(S(=O)(=O)Nc2n[nH]c(=O)n2-c2ccccc2)c(S)cc1Cl				28.8 µM
Cc1occc1C(=S)Nc1ccc(Cl)c(C(=O)OCC2CC2)c1	NL4-3		cytopathic effect / XTT	0.05 µM
Cc1cn([C@@H]2O[C@H](COCC(C)C)C3(OS(=O)(=O)C=C3N)[C@H]2O[Si](C)(C)C(C)(C)C)c(=O)n(C)c1=O				0.6 µM
COc1cc(C)cc2c(-c3c(O)cc(O)c4c3C[C@H](C)N[C@H]4C)cc(-c3cc(-c4c(O)cc(O)c5c4C[C@H](C)N[C@H]5C)c4cc(C)cc(OC)c4c3O)c(O)c12	RF			11 µM
Cc1cn([C@H]2O[C@@H](CO)C[C@@H]2F)c(=O)[nH]c1=O			cytopathic effect / MTT	>100 µM
COC(=O)C[C@H](O)[C@@H](NC(=O)[C@H](C)NC(=O)C[C@H](O)[C@@H](NC(=O)Oc1ccccc1)C(F)(F)F)C(F)(F)F	LAI		RT activity	>100 µg/mL
OC[C@@H]1C=C[C@H](n2ccc3c(Cl)ncnc32)C1	LAI		RT activity	>100 µM
COc1cc(-c2ccc(N=Nc3ccc4c(S(=O)(=O)O)cc(S(=O)(=O)O)c(N)c4c3O)c(OC)c2)ccc1N=Nc1ccc2c(S(=O)(=O)O)cc(S(=O)(=O)O)c(N)c2c1O	C		cytopathic effect / XTT	0.7 µM
Cc1cn([C@H]2O[C@@H](CO)C[C@@H]2N=[N+]=[N-])c(=O)[nH]c1=O			cytopathic effect / MTT	>100 µM
CCCc1cc(=O)oc2c1=C1OC(C)(C)C=CC1C1O[C@H](C)[C@H](C)C(=O)C=21			cytopathic effect / MTT	2.82 µM
C[C@H](NC(=O)C[C@H](O)[C@@H](NC(=O)Oc1ccccc1)C(F)(F)F)C(=O)O	LAI		RT activity	>100 µg/mL
CC1=C(C(=O)Nc2ccc(Cl)cc2)SCCS1	IIIB		cytopathic effect / XTT	0.0355 µg/mL
FC(F)(c1ccccc1)C(F)(F)c1nc2ccccc2o1	LAI		RT activity	>100 µM
C=CCO/N=C/c1cc(NC(=S)c2ccoc2C)ccc1Cl	NL4-3	RT-V108I	cytopathic effect / XTT	0.1 µM
CCCCCCCCCCCCCCCC(=O)Nc1ccn([C@H]2CC[C@@H](COP(=O)(O)O[C@H]3C[C@H](n4cc(C)c(=O)[nH]c4=O)O[C@@H]3CO)O2)c(=O)n1	OC-resistant RT L100I	Oxathiin carboxanilide-resistant RT L100I	cytopathic effect / XTT	0.1471 µM
C[n+]1c(-c2cccc(C(=O)NCCCCCC(=O)NCCC(=O)N[C@@H](CCCN=C(N)N)C(=O)O)c2)c2cc(N)ccc2c2ccc(N)cc21	LAI		RT activity	1 µM
C=CCOc1cc(NC(=S)c2ccoc2C)ccc1OC	RF		cytopathic effect / XTT	0.08 µM
CSCC[C@H](NC(=O)[C@H](CCO)N(Cc1ccccc1)C(=O)[C@H](CC(C)C)NC(=O)OCc1ccccc1)C(=O)NC(C)(C)C	IIIB		p24	0.295 µM
O=C(Cc1ccccc1)Nn1c(-c2ccccc2)nc2ccccc2c1=O	RF		cytopathic effect / XTT	61 µM
CC=CCOc1cc(NC(=S)c2ccoc2C)ccc1OC	NL4-3	RT-V179D	cytopathic effect / XTT	0.6 µM
O=C(OC(c1ccccc1)C(F)(F)c1nc2ccccc2o1)c1cccc(C(F)(F)F)c1	LAI		RT activity	>100 µM
Cc1occc1C(=S)Nc1ccc(Cl)c(C(=O)OC(C)C)c1	NL4-3	RT-Y181C	cytopathic effect / XTT	1.2 µM
CSCC[C@H](NC(=O)[C@H](CCO)N(Cc1ccccc1)C(=O)[C@H](Cc1ccccc1)NC(=O)OCc1ccccc1)C(=O)NC(C)(C)C	IIIB		p24	0.245 µM
FC(F)(c1ccc(-c2ccccc2)cc1)C(F)(F)c1nc2ccccc2o1	LAI		RT activity	>100 µM
CCCCCCCCCCCC(=O)NCC(COP(=O)([O-])OCC[N+](C)(C)C)OCCCCCCCC			plaque count / syncytia	0.64 µM
FC(F)(Cc1ccccc1)c1nc2ccccc2o1	LAI		RT activity	>100 µM
CCOC(=O)c1c(C(C)C)c(C#N)c(=N)n2ccccc12	RF		cytopathic effect / XTT	14 µg/mL

Lines come from different laboratories, so protocols vary. ECn is the concentration giving n% inhibition of infection, replication or growth. Two numbers with a dash give a range or band.